## Potato spindle tuber viroid, stem 15: variant abundance in plants

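A pool of all variants was put on leaves of three Nicotiana benthamiana plants. Progeny were sequenced from the inoculated region (day 5), the margin of the inoculated leaf (day 10) and systemic leaves (day 12).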

PSTVd intermediate strain, stem 15: wild type CUGGAGCGAUCGCUUCGG, pool pattern CUGGAGCGAUNGNNUNNG; upper and lower strand joined, each 5' to 3', the first 9 letters being the upper strand.

Values are reads per thousand in the sample; higher means more abundant, 0 means not found. Each value is the mean of three plants. "Pool" is the share in the plasmid pool used as inoculum, on the same scale. The inoculated region was read from the minus strand, the other sites from the plus strand. IR is the inoculated region, LM the leaf margin, Sys the systemic leaves. With 36,693-63,082 reads a sample, very low values are single reads. For reference, wild type rose from 10.2 per thousand in the pool to 285, 367, 312 (inoculated region), 785, 865, 782 (leaf margin) and 854, 898, 915 (systemic leaves). Sequences that differ at fixed positions probably stem from PCR or sequencing errors, and defective variants can be carried along by functional ones.

CUGGAGCGAUCGACUCGG (pool 0.937) read IR 0.336; LM 0.0367; Sys 0. For CUGGAGCGAUAGACUCGG (pool 1.03) the result was IR 0.323; LM 0.0175; Sys 0. With CUGGAGCGAUGGCGUUGG (pool 0.808) the assay gave IR 0.301; LM 0.0663; Sys 0. CUGGAGCGAUAGAUUGUG (pool 1.08) read IR 0.282; LM 0.0435; Sys 0. With AUGGAGCGAUUGCUUCAG (pool 0.0162) the assay gave IR 0; LM 0; Sys 0. For CUGGAGCGAUAGGGUCAG (pool 0.905) the result was IR 0.297; LM 0.0372; Sys 0. With CUGGAGCGAUAGCAUCCG (pool 0.840) the assay gave IR 0.298; LM 0.0541; Sys 0.

CUGGAGCGAUUGCUUCCG (pool 1.05) read IR 0.287; LM 0.0175; Sys 0. CUGGAGCGAUUGAAUUCG (pool 1.08) read IR 0.510; LM 0.0378; Sys 0. CUGGAGCGAUUGGAUCCG (pool 0.760) read IR 0.257; LM 0.0213; Sys 0. With CUGGAGCGAUCGAAUGAG (pool 1.08) the assay gave IR 0.342; LM 0.0191; Sys 0. CUGGAGCGAUUGCCUGCG (pool 0.695) gave IR 0.262; LM 0.0282; Sys 0.231. For CUGGAGCGAUAGAAUUUG (pool 0.760) the result was IR 0.243; LM 0.0160; Sys 0. CUGGAGCGAUUGUGUAAG (pool 0.937) read IR 1.44; LM 0.468; Sys 0.297.

With CUGGAGCGACCGCUUCGG (pool 0.0485) the assay gave IR 0.0967; LM 0.125; Sys 0.116. CUAGAGCGAUAGCAUGAG (pool 0.0162) read IR 0; LM 0; Sys 0. With CUGGAGCGAUGGUUUAUG (pool 0.889) the assay gave IR 1.07; LM 0.0160; Sys 0. CUGGAGCGAUGGUAUUUG (pool 1.00) read IR 0.245; LM 0.0663; Sys 0. CUGGAGCGAUGGGAUCUG (pool 0.937) gave IR 0.261; LM 0.0610; Sys 0. For CUGGAGCGAUGGUCUUUG (pool 0.760) the result was IR 1.48; LM 0.0457; Sys 0. CUGGAGCGAUCGCUCCGG (pool 0.113) read IR 0.190; LM 0.200; Sys 0.313.

CUAGAGCGAUCGUAUGCG (pool 0.0162) gave IR 0; LM 0; Sys 0. For CUGGAGCGAUAGAAUGAG (pool 1.65) the result was IR 1.19; LM 0.0144; Sys 0.103. CUGGAGCGAUCGCCUUAG (pool 1.05) gave IR 1.46; LM 0.704; Sys 0.576. For CUGGAGCGAUUGCCUUAG (pool 0.840) the result was IR 2.79; LM 1.25; Sys 1.23. CUGGAGCGAUAGUCUGCG (pool 0.986) gave IR 0.306; LM 0.0265; Sys 0. CUGGAGCGAUCGAUUACG (pool 0.921) gave IR 0.432; LM 0.0325; Sys 0. For CUGGAGCGAUCGUGUUUG (pool 0.695) the result was IR 0.318; LM 0.0367; Sys 0.

With CUGGAGCGAUUGCGUGGG (pool 2.34) the assay gave IR 1.38; LM 0.0403; Sys 0.00664. CUGGAGCGAUCGUCUAUG (pool 0.857) gave IR 0.398; LM 0.0403; Sys 0. With CUGGAGCGAUUGUUUGGG (pool 0.824) the assay gave IR 0.230; LM 0.0488; Sys 0. CUGGAGCGAUUGAGUAUG (pool 0.970) gave IR 0.209; LM 0.0488; Sys 0. With CUGGAGCGAUCGCUUUUG (pool 0.921) the assay gave IR 0.253; LM 0.0488; Sys 0.

The first 2 entries again:

sequence	pool	IR	LM	Sys
CUGGAGCGAUCGACUCGG	0.937	0.336	0.0367	0
CUGGAGCGAUAGACUCGG	1.03	0.323	0.0175	0

From the data files of Wu et al. 2024, doi:10.1371/journal.ppat.1012142.